One data set can be described thus: general procedure: solution-phase peptide synthesis; T3P, NMM. Particulars: coupling step.
Consider “(S)-2-((S)-2-acetamido-2-cyclopentylacetamido)-3-cyclopentyl-N-(2-oxo-2-(((R)-1-((3aS,4S,6S,7aR)-3a,5,5-trimethylhexahydro-4,6-methanobenzo[d][1,3,2]dioxaborol-2-yl)ethyl)amino)ethyl)propanamide”, for which the step yield worked out at 24%. Consider “tert-Butyl ((S)-1-cyclopentyl-2-(((2S,3S)-3-methyl-1-oxo-1-((2-oxo-2-(((R)-1-((3aS,4S, 6S,7aR)-3a,5,5-trimethylhexahydro-4,6-methanobenzo[d][1,3,2]dioxaborol-2-yl) ethyl)amino)ethyl)amino)pentan-2-yl)amino)-2-oxoethyl)carbamate”, for which the step yield was 73%.

Take “(S)-2-acetamido-2-cyclopentyl-N-((S)-2-oxo-2-((2-oxo-2-(((R)-1-((3aS,4S,6S,7aR)-3a,5,5-trimethylhexahydro-4,6-methanobenzo[d][1,3,2]dioxaborol-2-yl)ethyl)amino)ethyl)amino)-1-phenylethyl)acetamide”: the step yield stood at 35%. Same read-out and setting: the same measure for “(S)-2-((S)-2-acetamido-2-cyclopentylacetamido)-4,4-dimethyl-N-(2-oxo-2-(((R)-1-((3aS,4S,6S, 7aR)-3a,5,5-trimethylhexahydro-4,6-methanobenzo[d][1,3,2]dioxaborol-2-yl)ethyl)amino) ethyl)pentanamide”: 52%. The same measure, in the same setting: then “(S)-2-((S)-2-acetamido-2-cyclopentylacetamido)-3-cyclohexyl-N-(2-oxo-2-(((R)-1-((3aS,4S,6S, 7aR)-3a,5,5-trimethylhexahydro-4,6-methanobenzo[d][1,3,2]dioxaborol-2-yl)ethyl)amino)ethyl) propanamide”, with 30%.

“(S)-2-((S)-2-acetamido-2-cyclopentylacetamido)-4-methyl-N-(2-oxo-2-(((R)-1-((3aS,4S,6S, 7aR)-3a,5,5-trimethylhexahydro-4,6-methanobenzo[d][1,3,2]dioxaborol-2-yl)ethyl)amino) ethyl)pentanamide” returned a step yield of 41%. Still for that read-out and setting: the same measure for “(S)-2-((S)-2-acetamido-2-cyclopentylacetamido)-3,3-dimethyl-N-(2-oxo-2-(((R)-1-((3aS,4S,6S, 7aR)-3a,5,5-trimethylhexahydro-4,6-methanobenzo[d][1,3,2]dioxaborol-2-yl)ethyl)amino)ethyl) butanamide”: 47%; for “tert-Butyl (3S,6S,12R)-6-((S)-sec-butyl)-3-cyclopentyl-1-(3,5-dimethylphenyl)-1,4,7, 10-tetraoxo-12-((3aS,4S,6S,7aR)-3a,5,5-trimethylhexahydro-4,6-methanobenzo[d] [1,3,2]dioxaborol-2-yl)-2,5,8,11-tetraazapentadecan-15-oate (24c)”: 37%.

On to “tert-Butyl (3S,6S,12R)-6-((S)-sec-butyl)-3-cyclopentyl-1,4,7,10-tetraoxo-1-(quinolin-2-yl)-12-((3aS,4S,6S,7aR)-3a,5,5-trimethylhexahydro-4,6-methanobenzo[d][1,3,2] dioxaborol-2-yl)-2,5,8,11-tetraazapentadecan-15-oate (24a)”, for which the step yield is given as 55%. Same read-out and setting: the same measure for “tert-Butyl (3S,6S,12R)-6-((S)-sec-butyl)-3-cyclopentyl-1,4,7,10-tetraoxo-1-(6-phenyl-pyridin-2-yl)-12-((3aS,4S,6S,7aR)-3a,5,5-trimethylhexahydro-4,6-methanobenzo[d] [1,3,2]dioxaborol-2-yl)-2,5,8,11-tetraazapentadecan-15-oate (24b)”: 39%. The same measure, in the same setting: then “(S)-2-((S)-2-acetamido-2-cyclopentylacetamido)-N-(2-oxo-2-(((R)-1-((3aS,4S,6S, 7aR)-3a,5,5-trimethylhexahydro-4,6-methanobenzo[d][1,3,2]dioxaborol-2-yl)ethyl) amino)ethyl)-3-phenylpropanamide”, with 38%.

Staying with this data set, now noted: late stage modification step.
The substance “((2R,8S,11S)-8-((S)-sec-butyl)-11-cyclopentyl-4,7,10,13-tetraoxo-3,6,9,12-tetraaza-tetradecan-2-yl)boronic acid” had a step yield of 81%. On the same count and under the same terms, the same measure for “((2R,8S,11S)-8-((S)-sec-butyl)-11-cyclopentyl-14,14-dimethyl-4,7,10,13-tetraoxo-3,6,9,12-tetraazapentadecan-2-yl)boronic acid”: 53%; for “((2R,8S,11S)-11-cyclopentyl-8-isobutyl-4,7,10,13-tetraoxo-3,6,9,12-tetraazatetra-decan-2-yl)boronic acid”: 79%; for “(2S,3S)-2-((S)-2-cyclopentyl-2-pivalamidoacetamido)-3-methyl-N-(2-oxo-2-(((R)-1-((3aS,4S,6S,7aR)-3a,5,5-trimethylhexahydro-4,6-methanobenzo[d][1,3,2]dioxaborol-2-yl)ethyl)amino)ethyl)pentanamide”: 67%. Same read-out and setting: the same measure for “((3S,6S,12R)-6-((S)-sec-butyl)-3-cyclopentyl-4,7,10-trioxo-1-phenyl-2,5,8,11-tetra-azatridecan-12-yl)boronic acid”: 65%. The substance “((3S,6S,12R)-6-((S)-sec-butyl)-1-cyclobutyl-3-cyclopentyl-1,4,7,10-tetraoxo-2,5,8,11-tetraazatridecan-12-yl)boronic acid” gave a step yield of 80%. In turn, “(2S,3S)-2-((S)-2-cyclopentyl-2-((pyridin-2-ylmethyl)amino)acetamido)-3-methyl-N-(2-oxo-2-(((R)-1-((3aS,4S,6S,7aR)-3a,5,5-trimethylhexahydro-4,6-methano benzo[d]-[1,3,2]dioxaborol-2-yl)ethyl)amino)ethyl)pentanamide” had a step yield of 59%. On the same count and under the same terms, then “((3S,6S,12R)-6-((S)-sec-butyl)-3-cyclopentyl-1,4,7,10-tetraoxo-1-(6-phenylpyridin-2-yl)-2,5,8,11-tetraazatridecan-12-yl)boronic acid”, with 70%. Substance “((2R,8S,11S)-11-cyclopentyl-4,7,10,13-tetraoxo-8-phenyl-3,6,9,12-tetraazatetradecan -2-yl)boronic acid” displayed a step yield of 75%.

“((3S,6S,12R)-6-((S)-sec-butyl)-3-cyclopentyl-1,4,7,10-tetraoxo-1-(quinolin-2-yl)-2,5,8,11-tetraazatridecan-12-yl)boronic acid” registered a step yield of 74%.

“((3S,6S,12R)-6-((S)-sec-butyl)-3-cyclopentyl-4,7,10-trioxo-1-(pyridin-2-yl)-2,5,8,11-tetraazatridecan-12-yl)boronic acid (3j)” came in with a step yield of 62%. The same measure, in the same setting: the same measure for “N-((S)-1-cyclopentyl-2-(((2S,3S)-1-((2-(((R)-2-hydroxy-6-oxo-1,2-oxaborinan-3-yl)amino)-2-oxoethyl)amino)-3-methyl-1-oxopentan-2-yl)amino)-2-oxoethyl)-6-phenylpicolinamide (4b)”: 93%. Same read-out and setting: the same measure for “N-((S)-1-cyclopentyl-2-(((2S,3S)-3-methyl-1-oxo-1-((2-oxo-2-(((R)-1-((3aS,4S, 6S,7aR)-3a,5,5-trimethylhexahydro-4,6-methanobenzo[d][1,3,2]dioxaborol-2-yl)ethyl) amino) ethyl)amino)pentan-2-yl)amino)-2-oxoethyl)quinoline-2-carboxamide”: 63%; for “((2R,8S,11S)-8-(tert-butyl)-11-cyclopentyl-4,7,10,13-tetraoxo-3,6,9,12-tetraazatetra decan-2-yl)boronic acid”: 74%; for “N-((S)-1-cyclopentyl-2-(((2S,3S)-1-((2-(((R)-2-hydroxy-6-oxo-1,2-oxaborinan-3-yl)amino)-2-oxoethyl)amino)-3-methyl-1-oxopentan-2-yl)amino)-2-oxoethyl) quinoline-2-carboxamide (4a)”: 82%.

Substance “((2R,8S,11S)-11-cyclopentyl-8-(cyclopentylmethyl)-4,7,10,13-tetraoxo-3,6,9,12-tetra-azatetradecan-2-yl)boronic acid” showed a step yield of 59%. “((2R,8S,11S)-8-benzyl-11-cyclopentyl-4,7,10,13-tetraoxo-3,6,9,12-tetraazatetradecan-2-yl)boronic acid” displayed a step yield of 75%. The same measure, in the same setting: the same measure for “N-((S)-1-cyclopentyl-2-(((2S,3S)-3-methyl-1-oxo-1-((2-oxo-2-(((R)-1-((3aS,4S, 6S,7aR)-3a,5,5-trimethylhexahydro-4,6-methanobenzo[d][1,3,2]dioxaborol-2-yl)ethyl)amino)ethyl)amino)pentan-2-yl)amino)-2-oxoethyl)-6-phenylpicolinamide”: 64%. Same read-out and setting: then “((2R,8S,11S)-8-(cyclohexylmethyl)-11-cyclopentyl-4,7,10,13-tetraoxo-3,6,9,12-tetra-azatetradecan-2-yl)boronic acid”, with 54%; and “((2R,8S,11S)-11-cyclopentyl-8-neopentyl-4,7,10,13-tetraoxo-3,6,9,12-tetraazatetra-decan-2-yl)boronic acid”, with 82%. The same measure, in the same setting: the same measure for “((2R,8S,11S)-8-((S)-sec-butyl)-11-cyclopentyl-14-methyl-4,7,10,13-tetraoxo-3,6,9,12-tetraazapentadecan-2-yl)boronic acid”: 66%; for “(2S,3S)-2-((S)-2-cyclopentyl-2-(thiazole-2-sulfonamido)acetamido)-3-methyl-N-(2-oxo-2-(((R)-1-((3aS,4S,6S,7aR)-3a,5,5-trimethylhexahydro-4,6-methanobenzo[d]-[1,3,2]dioxaborol-2-yl)ethyl)amino)ethyl)pentanamide”: 81%.

On to “N-((S)-1-cyclopentyl-2-(((2S,3S)-3-methyl-1-oxo-1-((2-oxo-2-(((R)-1-((3aS,4S,6S, 7aR)-3a,5,5-trimethylhexahydro-4,6-methanobenzo[d][1,3,2]dioxaborol-2-yl)ethyl) amino)ethyl)amino)pentan-2-yl)amino)-2-oxoethyl)cyclobutanecarboxamide”, for which the step yield is listed as 55%.

Still in this data set, the particulars now being: late stage modification step; run 1.
As to “((3S,6S,12R)-6-((S)-sec-butyl)-3-cyclopentyl-1-(3,5-dimethylphenyl)-1,4,7,10-tetra-oxo-2,5,8,11-tetraazatridecan-12-yl)boronic acid”, the step yield came to 71%.

The data set is the same for the next values; noted with them: late stage modification step; run 2.
As for “((3S,6S,12R)-6-((S)-sec-butyl)-3-cyclopentyl-1-(3,5-dimethylphenyl)-1,4,7,10-tetra-oxo-2,5,8,11-tetraazatridecan-12-yl)boronic acid”, the step yield came out at 67%.
